Our source for the KM values is patent publication US20130065259.

For series [1], the system named is BoNT/A cleavable peptide #115: [5-Fam]TRIDEANQRATK[DABCYL]-Nle.
Series [2] has as its system BoNT/A cleavable peptide #116: [4-Mu]TRIDEANQRATK[DABCYL]-Nle.

By KM is commonly meant the concentration of substrate that gives half-maximal velocity.

With “BoNT/A (form not stated where used: holotoxin or complex)”, the KM in series [1] turned out to be 4.99 µM; in series [2], 2.62 µM.
